Measured data: PubChem BioAssay AID624099 (ICCB-Longwood, 2012)

- Aim: 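Human genes that papillomavirus E2 requires to repress the HPV18 LCR promoter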 (primary screen)
- Cells: human C33A cervical carcinoma cells (HPV-negative) stably expressing BPV1 E2 and an HPV18 LCR luciferase reporter
- Knock-down reagent: siRNA pool against human genes, 40 nM
- Duration: 72 h
- Measurement: 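HPV18 LCR reporter light per well, converted to plate-wise z-scores that exclude control wells, and averaged over triplicate plates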
- Scale: mean z-score and z-score: higher = stronger reporter signal, weaker E2 silencing
- Active means: 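Hit if mean z-score reaches 2 and two or more of three replicate z-scores also reach 2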
The whole screen tested about 21,000 reagents; below is a random part of them. 497 of all reagents (2.4%) were called active. 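Higher z means weaker E2 silencing; only reporter increases were scored, and knock-downs that hurt cell survival may mask genuine repressor factors.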 Entries without a mark were called inactive. The numbers tell different reagents against one gene apart.

With knock-down of UBTFL2, the screen gave mean z-score 1.12; z-score, replicate A = 1.19; z-score, replicate B = 0.85; z-score, replicate C = 1.31.
After knock-down of RPL7P6, the screen gave mean z-score -4.08; z-score, replicate A = -3.46; z-score, replicate B = -4.37; z-score, replicate C = -4.41.
Silencing of KIF3B resulted in: mean z-score -1.29; z-score, replicate A = -1.37; z-score, replicate B = -1.22; z-score, replicate C = -1.28.
With knock-down of CLEC16A the results were mean z-score -0.24; z-score, replicate A = -0.47; z-score, replicate B = -0.45; z-score, replicate C = 0.21.
SMIM43 showed mean z-score 0.32; z-score, replicate A = 0.24; z-score, replicate B = 0.28; z-score, replicate C = 0.45.
Depletion of MTHFD2L #1 came out at: mean z-score -1.38; z-score, replicate A = -1.5; z-score, replicate B = -1.69; z-score, replicate C = -0.96.
With knock-down of MTHFD2L #2, the record shows mean z-score 0.68; z-score, replicate A = 1.12; z-score, replicate B = 0.38; z-score, replicate C = 0.54.
Knock-down of C6 gave: mean z-score 1.41; z-score, replicate A = 1.57; z-score, replicate B = 1.41; z-score, replicate C = 1.27.
With knock-down of CRIP1, the record shows mean z-score 0.53; z-score, replicate A = 0.47; z-score, replicate B = 0.64; z-score, replicate C = 0.48.
After knock-down of ABCB8, the screen gave mean z-score 0.31; z-score, replicate A = -0.08; z-score, replicate B = 0.33; z-score, replicate C = 0.67.
Knock-down of GMCL2 resulted in: mean z-score -0.95; z-score, replicate A = -0.74; z-score, replicate B = -1.2; z-score, replicate C = -0.92.
Against SEMA4A, the values are mean z-score -0.51; z-score, replicate A = -0.71; z-score, replicate B = -0.19; z-score, replicate C = -0.64.
MARVELD2 scored mean z-score -0.63; z-score, replicate A = -0.72; z-score, replicate B = -0.19; z-score, replicate C = -0.97.
For CALCA, the values are mean z-score 0.69; z-score, replicate A = 0.45; z-score, replicate B = 0.4; z-score, replicate C = 1.21.
Against LOC389252 (retired record), the entry reads mean z-score -1.15; z-score, replicate A = -0.63; z-score, replicate B = -1.42; z-score, replicate C = -1.41.
LOC402669 (retired record) showed mean z-score -0.08; z-score, replicate A = -0.01; z-score, replicate B = -0.21; z-score, replicate C = -0.01.

Individual results from the entries so far.
LOC389252 (retired record), mean z-score = -1.15
For “z-score, replicate A”, GMCL2 has -0.74

The results go on.
With knock-down of RRM1, the screen gave mean z-score 0.21; z-score, replicate A = 0.94; z-score, replicate B = -0.15; z-score, replicate C = -0.16.
With knock-down of FLJ41327 (retired record), the record shows mean z-score 0.19; z-score, replicate A = 0.28; z-score, replicate B = 0.25; z-score, replicate C = 0.03.
LOC286441 (retired record) showed mean z-score 0.02; z-score, replicate A = 0.2; z-score, replicate B = 0.12; z-score, replicate C = -0.25.
After knock-down of RPS2, the screen gave mean z-score -1.68; z-score, replicate A = -1.75; z-score, replicate B = -1.53; z-score, replicate C = -1.75.
With knock-down of CELA2A the results were mean z-score 0.38; z-score, replicate A = 0.77; z-score, replicate B = 0.15; z-score, replicate C = 0.21.
After knock-down of PEF1 the results were mean z-score 0.42; z-score, replicate A = 0.57; z-score, replicate B = 0.2; z-score, replicate C = 0.49.
Against LRRC32, the values are mean z-score -0.07; z-score, replicate A = 0.19; z-score, replicate B = -0.16; z-score, replicate C = -0.25.
AMY1A scored mean z-score -0.97; z-score, replicate A = -1.08; z-score, replicate B = -0.57; z-score, replicate C = -1.24.
Depletion of AQP7P3 gave: mean z-score -0.3; z-score, replicate A = -0.06; z-score, replicate B = -0.62; z-score, replicate C = -0.22.
Silencing of PTN came out at: mean z-score 0.36; z-score, replicate A = 0.37; z-score, replicate B = 0.37; z-score, replicate C = 0.35.
With knock-down of YARS2, the record shows mean z-score -0.27; z-score, replicate A = -0.22; z-score, replicate B = -0.23; z-score, replicate C = -0.37.
